# Experimental data: paper PMC3873415, “A Non-Biological Method for Screening Active Components against Influenza Virus from Traditional Chinese Medicine by Coupling a LC Column with Oseltamivir Molecularly Imprinted Polymers” (PLoS ONE, 2013)
# System: MDCK cells
# Conditions: dog
substance,measurement,value
phillyrin,TCD0 (maximum non-toxic concentration),1 mg/mL
